Results published in paper PMC8956739 (Nature Communications, 2022).
Residues, ends and D or L forms follow the SMILES beside them.

Test system: HK-2 cells
Assay: Transcriptomic analysis (RNA-Seq) of kidney cells
Type: cell-based, human
Conditions: 100 μM, 24 h, fold change ≥ 1.5
Experimental: Human Kidney-2 (HK-2) cells (CRL-2190™, American Type Culture Collection) were treated with 100 μM colistin, F287, F319, and F365 for 24 h. Previous transcriptomic data of HK-2 cells following 24 h treatment with polymyxin B[26] were also employed for comparative bioinformatic analysis. RNA extraction was conducted as described above. Raw reads were aligned to genome GRCh38.94 (Ensembl genome database, http://ftp.ensembl.org/pub/release-94/fasta/homo_sapiens/dna/) using […] and summarized by featureCounts. Differentially expressed genes were determined using limma 3.46.0, with a combination of fold change ≥ 1.5 and FDR (by Benjamini–Hochberg algorithm) adjusted P-value ≤ 0.05 (n = 3). Key regulatory genes of HK-2 were analyzed in the context of signaling network in the Signor 2.0 database. Enrichment analysis of gene differential expression in HK-2 cells was conducted using enrichR 2.1. UpSetR 1.4.0, ComplexHeatmap 2.6.2, circlize 0.4.13 and iGraph 1.2.11 were used for data visualization. Raw data were deposited in the Short Reads Archive database under accession numbers SRR15239061-SRR15239078.

Row | Compound | number of genes with significantly changed expression [genes]
1 | CCCCCCCC(=O)N[C@@H](CCN)C(=O)N[C@H](C(=O)N[C@@H](CN)C(=O)N[C@H]1CCNC(=O)[C@H]([C@@H](C)O)NC(=O)[C@H](CCN)NC(=O)[C@H](CCN)NC(=O)[C@H](CC)NC(=O)[C@@H](CC(C)C)NC(=O)[C@H](CCN)NC1=O)[C@@H](C)O [Lipopeptide F287] (HELM PEPTIDE1{[CCCCCCCC(=O)[*:2]].[Dab].T.[NC[C@H](N[*:1])C(=O)[*:2]].[Dab].[Dab].[dL].[Abu].[Dab].[Dab].T}$PEPTIDE1,PEPTIDE1,5:R3-11:R2$$$V2.0) | 1076
2 | CCCCCCCC(=O)N[C@@H](CCN)C(=O)N[C@H](C(=O)N[C@@H](CCN)C(=O)N[C@H]1CCNC(=O)[C@H]([C@@H](C)O)NC(=O)[C@H](CCN)NC(=O)[C@H](CCN)NC(=O)[C@H](CC)NC(=O)[C@@H](CC(C)C)NC(=O)[C@H](CCN)NC1=O)[C@@H](C)O [Lipopeptide F319] (HELM PEPTIDE1{[CCCCCCCC(=O)[*:2]].[Dab].T.[Dab].[Dab].[Dab].[dL].[Abu].[Dab].[Dab].T}$PEPTIDE1,PEPTIDE1,5:R3-11:R2$$$V2.0) | 763
3 | CC[C@@H]1NC(=O)[C@@H](CC(C)C)NC(=O)[C@H](CCN)NC(=O)[C@@H](NC(=O)[C@H](CN)NC(=O)[C@@H](NC(=O)[C@H](CCN)NC(=O)c2ccc(Cl)cc2Cl)[C@@H](C)O)CCNC(=O)[C@H]([C@@H](C)O)NC(=O)[C@H](CCN)NC(=O)[C@H](CCN)NC1=O [Lipopeptide F365] (HELM PEPTIDE1{[O=C(c1ccc(Cl)cc1Cl)[*:2]].[Dab].T.[NC[C@H](N[*:1])C(=O)[*:2]].[Dab].[Dab].[dL].[Abu].[Dab].[Dab].T}$PEPTIDE1,PEPTIDE1,5:R3-11:R2$$$V2.0) | 70
4 | Colistin [reference compound] | 1282
